Experimental data: patent publication US20110207784A1, “OXADIAZOLE-2-OXIDES AS ANTISCHISTOSOMAL AGENTS” (THE UNITED STATES OF AMERICA, AS REPRESENTED BY THE …, priority 2008, published 2011)

Protein sequences, listed by entry. Tags and fused reporters are not part of them. Residues count along the entry.
UniProt Q962Y6, 1-598: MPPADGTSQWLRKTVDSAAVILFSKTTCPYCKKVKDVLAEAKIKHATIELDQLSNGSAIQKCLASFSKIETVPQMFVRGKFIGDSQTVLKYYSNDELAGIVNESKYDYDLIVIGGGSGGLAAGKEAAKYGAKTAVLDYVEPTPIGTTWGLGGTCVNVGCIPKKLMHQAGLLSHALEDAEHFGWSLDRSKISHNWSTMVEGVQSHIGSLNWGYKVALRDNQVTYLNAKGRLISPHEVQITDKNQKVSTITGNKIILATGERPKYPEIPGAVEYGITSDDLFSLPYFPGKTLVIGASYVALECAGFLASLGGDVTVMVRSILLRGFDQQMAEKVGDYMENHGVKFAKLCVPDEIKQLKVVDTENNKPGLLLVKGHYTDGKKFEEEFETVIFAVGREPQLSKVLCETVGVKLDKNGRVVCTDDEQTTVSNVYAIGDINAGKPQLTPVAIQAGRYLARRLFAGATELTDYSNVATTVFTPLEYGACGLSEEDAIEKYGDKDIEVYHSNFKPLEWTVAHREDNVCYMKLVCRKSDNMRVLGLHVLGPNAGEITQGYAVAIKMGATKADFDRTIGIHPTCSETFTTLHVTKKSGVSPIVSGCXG

How the values were obtained:
[1] = molecular target: Recombinant thioredoxin glutathione reductase (TGR) (Schistosoma mansoni, UniProt Q962Y6); assay: TGR enzyme inhibition assay (DTNB reduction, 1,536-well); type: biochemical, S. mansoni; conditions: for TGR Max. Resp.: maximum response of TGR activity at full efficacy (curve asymptote), −100 = complete inhibition; for IC50: read-out: TGR IC50, 15 min preincubation with NADPH/TGR, DTNB substrate, absorbance 405 nm
[2] = test system: freshly perfused S. mansoni worms; assay: ex vivo parasite killing assay; type: cell-based; conditions: compound at 10 μM, after 48 hours

SMILES: N#Cc1c(-c2ccc(-c3no[n+]([O-])c3C#N)cc2)no[n+]1[O-]
- TGR Max. Resp. [1]: -98 µM
- IC50 [1]: 1000 nM
- worms judged to be dead [2]: 100%

SMILES: N#Cc1c(-c2ccc(-c3no[n+]([O-])c3C#N)s2)no[n+]1[O-]
- TGR Max. Resp. [1]: -102 µM
- IC50 [1]: 400 nM
- worms judged to be dead [2]: 100%
